PubChem BioAssay AID504761 – Drosophila RNAi Screening Center | 2011
Assay: 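Insect host genes that dengue virus relies on to spread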 (primary screen). Cell system: D.Mel-2 cells from Drosophila. Reagents: long dsRNA against Drosophila genes. Conditions: infection with dengue virus type 2; dose and infection time not stated. Measured: 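Cells stained for dengue envelope protein and imaged; percent of infected cells per well on duplicate plates, ranked by infection, with stained nuclei counted for cell number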. Scale: infection score: higher = more virus-infected cells. Active means: 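Very low infection ranking in both replicate wells (chance probability at most 0.065), then a retest showing infection dropped 1.5-fold or more at p below 0.05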. Meaning of the calls: active = confirmed: knock-down lowers infection; inactive = not picked or not confirmed.
The screen tested about 22,000 reagents; this is an unselected part of those that have a named target and a result. Of all reagents, 116 (0.52%) are marked active. 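Calls depend on retest data that are not deposited; infection was ranked per plate without normalising between plates; the unit of the infection score is not given.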 Names joined by + are all predicted targets of the reagent. Not all columns of the deposit are shown. Reagent sequences are not shown. The record does not give: the amount of reagent, the time to read-out.

| gene | DRSC id | infection score, replicate 1 | Call |
| --- | --- | --- | --- |
| wek | DRSC03561 | 15.5 | inactive |
| RhoL | DRSC16824 | 20.7 | inactive |
| RhoL | DRSC23664 | 5.27 | inactive |
| Klc | DRSC11203 | 8.16 | inactive |
| Klc | DRSC26363 | 9.87 | inactive |
| CG32459 | DRSC11852 | 25.4 | inactive |
| CG42361 | DRSC04391 | 6.63 | inactive |
| CG7706 | DRSC16295 | 2.84 | inactive |
| CG7706 | DRSC26375 | 8.28 | inactive |
| CG1304 | DRSC20494 | 1.41 | inactive |
| CG1304 | DRSC25704 | 3.38 | inactive |

Look-ups from above:
wek [DRSC03561], infection score, replicate 1 → 15.5
Result for Klc [DRSC26363] under “Call”: inactive
CG7706 [DRSC16295], Call = inactive

Additional records follow.
| gene | DRSC id | infection score, replicate 1 | Call |
| --- | --- | --- | --- |
| JYalpha (retired record) + JYalpha | DRSC21700 | 4.77 | inactive |
| APC7 | DRSC17937 | 2.85 | inactive |
| APC7 | DRSC27097 | 8.33 | inactive |
| Lk | DRSC10022 | 2.49 | inactive |
| drpr | DRSC08143 | 2.27 | inactive |
| drpr | DRSC08525 | 2.06 | inactive |
| ImpL1 | DRSC11197 | 9.41 | inactive |
| ImpL1 | DRSC28367 | 10.4 | inactive |
| Rtf1 | DRSC04085 | 17.1 | inactive |
| Rtf1 | DRSC29441 | 8.27 | inactive |
| JIL-1 | DRSC11200 | 6.24 | inactive |
| Dlc90F | DRSC16649 | 3.09 | inactive |
